# PubChem BioAssay AID624099 – ICCB-Longwood, 2012
# Screen: 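Human genes that papillomavirus E2 requires to repress the HPV18 LCR promoter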 (primary screen)
# Cells: human C33A cervical carcinoma cells (HPV-negative) stably expressing BPV1 E2 and an HPV18 LCR luciferase reporter
# Reagent: siRNA pool against human genes, 40 nM
# Time to read-out: 72 h
# Detection: 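Per-well luciferase luminescence, z-scored on each plate against the plate mean and SD with control wells left out, then averaged across three replicate plates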
# Direction: mean z-score and z-score: higher = stronger reporter signal, weaker E2 silencing
# Hit rule: 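Hit if mean z-score reaches 2 and two or more of three replicate z-scores also reach 2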
# The deposit covers about 21,000 reagents; this is a random part of them. 497 of them (2.4%) count as active. 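Higher z means weaker E2 silencing; only reporter increases were scored, and knock-downs that hurt cell survival may mask genuine repressor factors.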 A number with no mark means an inactive call. Reagents against one gene are numbered here.
target gene,pool no.,mean z-score,"z-score, replicate A","z-score, replicate B","z-score, replicate C"
ISG20 (interferon stimulated exonuclease gene 20),1,1.22,1.28,1.22,1.17
ELAC1 (elaC ribonuclease Z 1),1,-0.63,-0.51,-0.84,-0.55
MYH10 (myosin heavy chain 10),1,0.19,0.22,-0.02,0.38
TFAP2E (transcription factor AP-2 epsilon),1,-1.03,-0.81,-1.02,-1.27
IL15RA (interleukin 15 receptor subunit alpha),1,0.33,0.47,0.23,0.29
ENTR1 (endosome associated trafficking regulator 1),1,-0.23,-0.1,-0.14,-0.44
RTP5 (receptor transporter protein 5 (putative)),1,-0.08,-0.31,-0.09,0.17
"POM121L9P (POM121 transmembrane nucleoporin like 9, pseudogene)",1,-0.2,0.11,-0.08,-0.62
KRTAP12-4 (keratin associated protein 12-4),1,0.54,0.85,0.43,0.33
ATOH1 (atonal bHLH transcription factor 1),1,0.36,-0.04,0.47,0.64
LOC402157 (retired record),1,0.05,0.4,-0.35,0.1
RRP8 (ribosomal RNA processing 8),1,-0.21,-0.24,-0.2,-0.19
GATB (glutamyl-tRNA amidotransferase subunit B),1,0.02,-0.1,0.36,-0.19
SLC7A5,1,0.2,0.19,0.33,0.07
BHLHE40 (basic helix-loop-helix family member e40),1,1.13,0.95,1.36,1.07
ACHE (acetylcholinesterase (Yt blood group)),1,1.11,0.86,1.54,0.94
BDH2 (3-hydroxybutyrate dehydrogenase 2),1,0.3,0.28,0.6,0.02
SYT13 (synaptotagmin 13),1,-1.12,-1.01,-1.33,-1.03
WDR97 (WD repeat domain 97),1,0.15,0.02,0.05,0.37
STK33 (serine/threonine kinase 33),1,-0.76,-0.45,-1.1,-0.73

Copied from the list.
Under “z-score, replicate C”, MYH10 (myosin heavy chain 10) reads 0.38
SYT13 (synaptotagmin 13), z-score, replicate B = -1.33

The list goes on.
target gene,pool no.,mean z-score,"z-score, replicate A","z-score, replicate B","z-score, replicate C"
HOMER2 (homer scaffold protein 2),1,2.14 (active),2.28,1.98,2.15
FBXO31 (F-box protein 31),1,-0.92,-0.51,-1.17,-1.08
LOC401048 (retired record),1,0.76,1.6,0.39,0.3
SLC22A14,1,-0.12,-0.13,-0.12,-0.11
FSIP2 (fibrous sheath interacting protein 2),1,0.03,0.1,0.17,-0.18
FSIP2 (fibrous sheath interacting protein 2),2,0.06,0.04,0.01,0.12
ANKRD16 (ankyrin repeat domain 16),1,-1.32,-1.22,-1.29,-1.45
LAMC3 (laminin subunit gamma 3),1,0.23,0.52,0.16,0.02
MGC16384 (retired record),1,-0.31,-0.59,-0.19,-0.15
MAP9 (microtubule associated protein 9),1,0.33,0.43,0.68,-0.11
BEND4 (BEN domain containing 4),1,0.53,0.62,0.48,0.48
MSRA (methionine sulfoxide reductase A),1,-0.7,-0.42,-1.17,-0.51
NLRP6 (NLR family pyrin domain containing 6),1,1.25,1.48,0.93,1.34
LOC284798,1,-0.8,-0.64,-0.84,-0.93
GARIN1B (golgi associated RAB2 interactor 1B),1,0.07,0.08,-0.02,0.16
MMP3 (matrix metallopeptidase 3),1,2.92 (active),2.45,3.23,3.07
HECTD3 (HECT domain E3 ubiquitin protein ligase 3),1,0.27,0.69,0.35,-0.23
MPV17L (MPV17 mitochondrial inner membrane protein like),1,-1.8,-1.63,-1.7,-2.06
KCNMB1,1,0.67,0.5,0.76,0.75
